Pooled drug test results. Numbers come from NIAID ChemDB, via PubChem.

All rows: whole-cell or culture tests; organism: Herpes simplex virus 1

ECn is the concentration giving n% inhibition of infection, replication or growth. Neighbouring rows are from separate reports. An empty or dashed field is not shown.

structure	cell line	method	strain or isolate	measure	result
O=c1c2ncn(COCCO)c2nc2[nH]c(-c3ccccc3)c(-c3ccc(C(c4ccccc4)c4ccccc4)cc3)n12		cytopathic effect	VMW 1837	EC50	>16 µg/mL
O=Cc1cn([C@H]2C[C@H](O)[C@@H](CO)O2)c(=O)[nH]c1=O	PRK	cytopathic effect	VEX142	EC50	2 µg/mL
COc1ccc(-c2[nH]c3nc4c(ncn4COCCO)c(=O)n3c2C)cc1	HEL	cytopathic effect	TK-	EC50	>16 µg/mL
Cc1cn([C@H]2OC[C@@H](CO)C2F)c(=O)[nH]c1=O	E6SM	cytopathic effect	KOS	EC50	>80 µg/mL
COc1ccc(-c2cn3c(=O)c4ncn(COC(CO)CO)c4nc3[nH]2)cc1		cytopathic effect	TK-deficient acyclovir-resistant	EC50	>16 µg/mL
CCc1c(CN[C@H]2CCCC[C@@H]2NCc2ccc[nH]2)c(CC)c(CN[C@H]2CCCC[C@@H]2NCc2ccc[nH]2)c(CC)c1CN[C@H]1CCCC[C@@H]1NCc1ccc[nH]1	Human embryonic lung fibroblasts	cytopathic effect	TK- KOS ACVr	EC50	>0.8 µM
O=c1[nH]c(=O)n([C@H]2C[C@H](O)[C@@H](CO)O2)cc1I			SCRUS	MIC	1.1 µg/mL
OC[C@H]1O[C@@H](c2cc(C#CBr)c(F)cc2F)C[C@@H]1O	E6SM	cytopathic effect	McIntyre	EC50	9.6 µg/mL
CCc1cn([C@H]2C[C@H](O)[C@@H](CO)O2)c(=O)[nH]c1=O	Primary rabbit kidney cells	cytopathic effect	LYONS	EC50	2 µg/mL
Nc1nc(=O)n([C@H]2C[C@H](O)[C@@H](CO)O2)cc1/C=C\Cl	PRK	cytopathic effect	B2006 (TK-)	EC50	>200 µg/mL
CC(=O)OCCOCN1C(=O)C=CN(COCCO)S1(=O)=O	E6SM		McIntyre	EC50	>400 µg/mL
N#Cc1cc([C@H]2C[C@H](O)[C@@H](CO)O2)c(F)cc1F	E6SM	cytopathic effect	VMW 1837	EC50	>400 µg/mL
O=c1c2ncn(COC(CO)CO)c2nc2[nH]c(-c3ccc(C(F)(F)F)cc3)cn12	HEL	cytopathic effect	McIntyre	EC50	1.92 µg/mL
CSCc1cn([C@H]2C[C@H](O)[C@@H](CO)O2)c(=O)[nH]c1=O	PRK	cytopathic effect	VDX500	EC50	20 µg/mL
[N-]=[N+]=NC(CBr)c1cc([C@H]2C[C@H](O)[C@@H](CO)O2)c(F)cc1F	E6SM	cytopathic effect	VMW1837 (TK-)	EC50	>400 µg/mL
c1c[nH]c(CNCc2c(CNCc3ccc[nH]3)c(CNCc3ccc[nH]3)c(CNCc3ccc[nH]3)c(CNCc3ccc[nH]3)c2CNCc2ccc[nH]2)c1	Human embryonic lung fibroblasts	cytopathic effect	KOS	EC50	>20 µM
O=c1[nH]c(=O)n([C@H]2C[C@H](O)[C@@H](COP(=O)([O-])OP(=O)([O-])OC[C@@H]3OC(O)[C@H](O)[C@H](O)[C@H]3O)O2)cc1I	PRK	cytopathic effect	McIntyre	EC50	0.4 µg/mL
Cc1c(-c2ccc(C(F)(F)F)cc2)[nH]c2nc3c(ncn3COCCO)c(=O)n12	HEL	cytopathic effect	F	EC50	1.92 µg/mL
O=c1c2ncn(COCCO)c2[nH]c2ncc(CO)n12		cytopathic effect	TK-deficient acyclovir-resistant	EC50	>3.2 µg/mL
CC(=O)OCCOCN1C(=N)/C(=C(\C)O)C(N)=NS1(=O)=O	E6SM		VMW1837 (TK-)	EC50	>400 µg/mL
Nc1nc2c(ncn2COCCO)c(=O)[nH]1	HFF	cytopathic effect	M35290 (acyclovir-susceptible)	EC50	0.25 µg/mL
CCc1c(CNCc2ccc[nH]2)c(CC)c(CNCc2ccc[nH]2)c(CC)c1CNCc1ccc[nH]1	Human embryonic lung fibroblasts	cytopathic effect	KOS	EC50	>0.8 µM
O=P(O)(O)OC[C@H]1OC(O)[C@@H](O)[C@@H](O)[C@@H]1O	PRK	cytopathic effect		EC50	>400 µg/mL
CCc1cc(CC)c(CNCc2ccc[nH]2)c(CC)c1CNCc1ccc[nH]1	Human embryonic lung fibroblasts	cytopathic effect	TK- KOS ACVr	EC50	>0.8 µM
C=Cc1cc([C@H]2C[C@H](O)[C@@H](CO)O2)c(F)cc1F	E6SM	cytopathic effect	F	EC50	>400 µg/mL
CC(=O)OCCOCN1C=CC(=O)N(COCCOC(C)=O)S1(=O)=O	E6SM		VMW1837 (TK-)	EC50	>400 µg/mL
CCCc1cn([C@H]2C[C@H](O)[C@@H](CO)O2)c(=O)[nH]c1=O	Primary rabbit kidney cells	cytopathic effect	KOS	EC50	1 µg/mL
CCOC(=O)C1=CN(COCCOC(C)=O)S(=O)(=O)N=C1N	E6SM		B206 (TK-)	EC50	>400 µg/mL
Nc1nc2c(ncn2COCCO)c(=O)[nH]1	VERO	cytopathic effect	KOS	EC50	0.9 µg/mL
O=c1c2ncn(COC(CO)CO)c2[nH]c2nccn12		cytopathic effect	KOS	EC50	0.7 µg/mL
O=c1[nH]c(=O)n([C@H]2C[C@H](O)[C@@H](CO)O2)cc1CN1CCCC1	PRK	cytopathic effect	KOS	EC50	>200 µg/mL
O=c1[nH]c(=O)n([C@@H]2O[C@H](CO)[C@@H](O)[C@@H]2O)cc1/C=C/Br	HEL	cytopathic effect	KOS	EC50	0.01 µg/mL
OC[C@H]1O[C@@H](c2cc(C(F)(F)F)c(F)cc2F)C[C@@H]1O	E6SM	cytopathic effect	KOS	EC50	>400 µg/mL
Nc1ncnc2c1ncn2[C@H]1OC[C@@H](CO)C1O	E6SM	cytopathic effect	KOS TK- acyclovir-resistant	EC50	240 µg/mL
Nc1nc2c(ncn2CCCC(CO)CO)c(=O)[nH]1	VERO	plaque count	C42 (acyclovir-resistant)	EC50	55 µM
O=[N+]([O-])c1cc([C@H]2C[C@H](O)[C@@H](CO)O2)c(F)cc1F	E6SM	cytopathic effect	KOS	EC50	>400 µg/mL
O=C(O)P(=O)(O)O	GMK	plaque count	ANGPR	EC50	601 µM
Cc1nc(N(C)C(=O)Cc2ccc(-c3ccccn3)cc2)sc1S(N)(=O)=O	VERO	plaque count	KT4	EC50	0.03 µM
Nc1nc(=O)n([C@H]2C[C@H](O)[C@@H](CO)O2)cc1/C=C/Br	VERO	plaque count		EC50	1.08 µM
Cc1cn([C@@]2(C#N)C[C@H](O)[C@@H](CO)S2)c(=O)[nH]c1=O	HEL	cytopathic effect		EC50	20 µg/mL
Nc1nc2c(ncn2COCCO)c(=O)[nH]1	MRC-5	virus yield	SC16	EC99	1.1 µg/mL
[N-]=[N+]=NCc1cn([C@H]2C[C@H](O)[C@@H](CO)O2)c(=O)[nH]c1=O	PRK	cytopathic effect	F	EC50	2 µg/mL
OC[C@H]1O[C@H](c2cc(F)c(F)cc2F)C[C@@H]1O	E6SM	cytopathic effect	McIntyre	EC50	>400 µg/mL
CCc1cc(CC)c(CNCc2ccc[nH]2)c(CC)c1	Human embryonic lung fibroblasts	cytopathic effect	TK- KOS ACVr	EC50	>20 µM
O=c1[nH]c(=O)n([C@H]2C[C@H](O)[C@@H](COP(=O)(O)O)O2)cc1I	E6SM	cytopathic effect	B2006 (TK-)	EC50	40 µg/mL
O=C(NCc1ccc(Cl)cc1)c1c[nH]c2ccc(C#CCO)cc2c1=O		plaque count	6 isolates	EC50	13 µM
Nc1nc2c(ncn2CC[C@@H](O)CO)c(=O)[nH]1	VERO	plaque count	KJ502	EC50	7 µM
CC(=O)OCCOCN1C=CC(=O)NS1(=O)=O	E6SM		B206 (TK-)	EC50	>400 µg/mL
OC[C@H]1O[C@H](c2cc(Cl)c(F)cc2F)C[C@@H]1O	E6SM	cytopathic effect	VMW 1837	EC50	>400 µg/mL
CC(=O)OCCOCn1cnc2c(=O)n3cc(-c4ccc5ccccc5c4)[nH]c3nc21		cytopathic effect	McIntyre	EC50	>16 µg/mL
O=c1[nH]c(=O)n([C@H]2C[C@H](O)[C@@H](CO)O2)cc1I	E6SM	cytopathic effect	KOS	EC50	0.1 µg/mL
O=c1c2ncn(COCCO)c2nc2[nH]c(-c3ccccc3)c(Cc3ccc(F)cc3)n12	HEL	cytopathic effect	F	EC50	>16 µg/mL
OC[C@H]1O[C@@H](c2cc(Cl)c(F)cc2F)C[C@@H]1O	E6SM	cytopathic effect	McIntyre	EC50	>400 µg/mL
Nc1nc(=O)n([C@H]2C[C@H](O)[C@@H](CO)O2)cc1/C=C/Cl	PRK	cytopathic effect	VMW1837 (TK-)	EC50	>400 µg/mL
OC[C@H]1O[C@H](c2cc(Br)c(F)cc2F)C[C@@H]1O	E6SM	cytopathic effect	KOS	EC50	>400 µg/mL
Nc1nc(=O)n([C@@H]2O[C@H](CO)[C@@H](O)[C@@H]2F)cc1I	ESM	cytopathic effect	KOS	EC50	0.01 µg/mL
Nc1ccn([C@@H]2OC[C@H](CO)[C@H]2O)c(=O)n1	E6SM	cytopathic effect	KOS	EC50	240 µg/mL

6 of the rows above, restated:

structure | cell line | method | strain or isolate | measure | result
O=c1c2ncn(COCCO)c2nc2[nH]c(-c3ccccc3)c(Cc3ccc(F)cc3)n12 | HEL | cytopathic effect | F | EC50 | >16 µg/mL
Cc1nc(N(C)C(=O)Cc2ccc(-c3ccccn3)cc2)sc1S(N)(=O)=O | VERO | plaque count | KT4 | EC50 | 0.03 µM
O=c1c2ncn(COCCO)c2[nH]c2ncc(CO)n12 |  | cytopathic effect | TK-deficient acyclovir-resistant | EC50 | >3.2 µg/mL
N#Cc1cc([C@H]2C[C@H](O)[C@@H](CO)O2)c(F)cc1F | E6SM | cytopathic effect | VMW 1837 | EC50 | >400 µg/mL
[N-]=[N+]=NC(CBr)c1cc([C@H]2C[C@H](O)[C@@H](CO)O2)c(F)cc1F | E6SM | cytopathic effect | VMW1837 (TK-) | EC50 | >400 µg/mL
Nc1nc2c(ncn2COCCO)c(=O)[nH]1 | HFF | cytopathic effect | M35290 (acyclovir-susceptible) | EC50 | 0.25 µg/mL